Mutational tolerance of the Zika virus NS2B-NS3 protease

Values reported by Ni et al. 2025 (doi:10.1038/s41467-025-63602-z).

Chain scanned (Zika virus MR766; NS2B from position 2 to 131, then the start of NS3):
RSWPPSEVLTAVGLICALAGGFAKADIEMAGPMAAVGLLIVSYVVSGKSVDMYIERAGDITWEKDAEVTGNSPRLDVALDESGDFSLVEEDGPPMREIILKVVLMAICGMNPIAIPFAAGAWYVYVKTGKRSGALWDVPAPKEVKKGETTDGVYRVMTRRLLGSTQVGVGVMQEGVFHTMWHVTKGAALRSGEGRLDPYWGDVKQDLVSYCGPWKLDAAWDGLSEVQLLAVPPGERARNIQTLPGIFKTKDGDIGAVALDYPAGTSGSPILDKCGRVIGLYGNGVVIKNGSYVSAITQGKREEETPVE

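Libraries of single mutants were passaged as virus pools on Huh-7.5 cells. Deep sequencing gave the change in frequency of each mutant relative to wild type, averaged over three replicate libraries (two for positions 207-308). The aim was to find sites where inhibitor-binding pockets cannot change.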

Scale: log2 effect, wild type = 0; the lower, the more harmful to the virus. Each entry names the wild-type residue, its position and the residue put in its place. All changes here are to aspartate. Positions 1-103, 104-206 and 207-308 were made and measured as separate libraries.

For L161D the result was -4.72.
For L162D the result was -5.16.
For G163D the result was -5.42.
For S164D the result was -2.62.
For T165D the result was -4.97.
For Q166D the result was -5.10.
For V167D the result was -6.00.
For G168D the result was -4.75.
For V169D the result was -5.27.
For G170D the result was -5.24.
For V171D the result was -5.19.
For M172D the result was -5.61.
For Q173D the result was -3.00.
For E174D the result was -3.11.
For G175D the result was -3.43.
For V176D the result was -4.56.
For F177D the result was -4.57.
For H178D the result was -5.18.
For T179D the result was -5.43.
For M180D the result was -4.25.
For W181D the result was -4.12.
For H182D the result was -3.28.
For V183D the result was -5.04.
For T184D the result was -5.41.
For K185D the result was -4.88.
For G186D the result was -5.07.
For A187D the result was -3.24.
For A188D the result was -5.06.
For L189D the result was -4.10.
For R190D the result was -3.71.
For S191D the result was -2.81.
For G192D the result was -4.49.
For E193D the result was 0.49.
For G194D the result was -5.58.
For R195D the result was -5.25.
For L196D the result was -4.16.
For P198D the result was -6.61.
For Y199D the result was -4.18.
For W200D the result was -6.12.
For G201D the result was -5.49.
For V203D the result was -6.37.
For K204D the result was -7.05.
For Q205D the result was -6.68.
For L207D the result was -6.92.
For V208D the result was -7.26.
For S209D the result was -5.62.
For Y210D the result was -6.00.
For C211D the result was -2.04.
For G212D the result was -5.92.
For P213D the result was -6.66.
For W214D the result was -7.19.

Excerpt, the final 4 entries:

For C211D the result was -2.04.
For G212D the result was -5.92.
For P213D the result was -6.66.
For W214D the result was -7.19.

Values above 0 are not proof of better growth: six high scorers were tested one by one, five grew less well than wild type and one about as well. Position 1 still belongs to NS2A. In the paper, -1 or higher counts as tolerated.